Anti-infective test results gathered from many reports (values: NIAID ChemDB through PubChem).

Shared fields: tests in culture; agent: Staphylococcus aureus

Two numbers with a dash give a range or band. A number after MIC or MFC names an inhibition level or a share of isolates. Neighbouring rows are from separate reports.

compound,measure,strain or isolate,value
O=C(O)c1cn(C2CC2)c2cc(NCCCNC3CCCCC3)c(F)cc2c1=O,MIC,ATCC 5278 (methicillin-resistant),>100 µg/mL
Cn1cc(C(=O)O)c(=O)c2cc3cc(F)c(N4CCN(c5ccc(F)cc5)CC4)cc3nc21,MIC,LF11C128 (quinolone-resistant),0.5 µg/mL
CC[C@H]1OC(=O)[C@@](C)(F)C(=O)[C@H](C)[C@@H](O[C@@H]2O[C@H](C)C[C@H](N(C)C)[C@H]2O)[C@@]2(C)C[C@@H](C)C(=NC(C)=O)[C@H](C)[C@@H](OC/C(=N\OCc3ccc(C(N)=O)s3)CO2)[C@]1(C)O,MIC,29213 (erythromycin A-susceptible),0.13 µg/mL
O=C(CSc1ccccc1)NC[C@H]1CN(c2ccc(N3CCOCC3)c(F)c2)C(=O)O1,MIC,ATCC 29213 (linezolid-resistant),>64 µg/mL
CC(=O)NC[C@H]1CN(c2ccc(-c3cnn(C(C)=O)c3)c(F)c2)C(=O)O1,MIC,UC9213 (methicillin-susceptible),2 µg/mL
O=C(Nc1cccc(C2=NCCN2)c1)Nc1cccc(C2=NCCN2)c1,MIC,MI273,111 µM
CC[C@H]1OC(=O)[C@@](C)(F)C(=O)[C@H](C)[C@@H](O[C@@H]2O[C@H](C)C[C@H](N(C)C)[C@H]2O)[C@@]2(C)C[C@@H](C)C(=NC(C)=O)[C@H](C)[C@@H](OC/C(=N\OCc3ccc(N)nc3)CO2)[C@]1(C)O,MIC,33591 (erythromycin methicillin-resistant),>64 µg/mL
CC[C@H]1OC(=O)[C@H](C)C(=O)[C@H](C)[C@@H](O[C@@H]2O[C@H](C)C[C@H](N(C)C)[C@H]2O)[C@@]2(C)C[C@@H](C)C(=NC(C)=O)[C@H](C)C(OC/C=C/CO2)[C@]1(C)O,MIC,29213 (erythromycin-susceptible),1 µg/mL
COc1c(CN(C)C)cccc1C1OC(c2ccncc2)=NN1C(C)=Nc1cccc(F)c1,MIC,MTCC96,6.25 µg/mL
CC(=O)NC[C@H]1CN(c2ccc(-c3csc(C)c3)c(F)c2)C(=O)O1,MIC,UC6685 (methicillin-resistant),2 µg/mL
CC[C@H]1OC(=O)[C@@](C)(F)C(=O)[C@H](C)[C@@H](O[C@@H]2O[C@H](C)C[C@H](N(C)C)[C@H]2O)[C@@]2(C)C[C@@H](C)C(=NC(C)=O)[C@H](C)[C@@H](OC/C(=N\OCc3ccc(-c4csnn4)nc3)CO2)[C@]1(C)O,MIC,33591 (erythromycin methicillin-resistant),32 µg/mL
CC(=O)NC[C@H]1CN(c2ccc(-c3cnn(C(c4ccccc4)(c4ccccc4)c4ccccc4)c3)c(F)c2)C(=O)O1,MIC,UC6685 (methicillin-resistant),>32 µg/mL
COc1ccc(-c2ccc(C3=CC(CNC(C)=O)OC3=O)cc2)ccc1=O,MIC,UC 12673,2 µg/mL
CC[C@H]1OC(=O)[C@H](C)[C@@H](O[C@H]2C[C@@](C)(OC)[C@@H](O)[C@H](C)O2)[C@H](C)[C@@H](O[C@H]2O[C@@H](C)C[C@@H](N(C)C)[C@@H]2O)[C@](C)(O)C[C@@H](C)C(=O)[C@H](C)[C@@H](O)[C@]1(C)O,MIC,27660 (erythromycin A -resistant),>64 µg/mL
O=C(CC(=O)Nc1cccc(C(F)(F)F)c1)Nc1cccc(C(F)(F)F)c1,MIC,MI273,>300 µM
Cn1cc(C(=O)O)c(=O)c2cc3cc(F)c(NC4CCCCC4)cc3nc21,MIC,IP8203 (quinolone-sensitive),1 µg/mL
O=C1O[C@@H](COc2cccnn2)CN1c1ccc(C2=CCOCC2)c(F)c1,MIC,004 (methicillin quinolone-resistant),0.5 µg/mL
O=C(CCC(=O)Nc1cc(C(F)(F)F)cc(C(F)(F)F)c1)Nc1cc(C(F)(F)F)cc(C(F)(F)F)c1,MIC,MI273,>300 µM
O=C(O)c1cn(C2CC2)c2cc(NCCCCCCO)c(F)cc2c1=O,MIC,ATCC 6538P,>100 µg/mL
CC(=O)NC[C@H]1CN(c2ccc(NC(=O)C3=CSNN3)c(F)c2)C(=O)O1,MIC,ATCC 29213 (linezolid-resistant),>64 µg/mL
O=C(/C=C/c1ccc(/C=N/O)cc1)NC[C@H]1CN(c2ccc(N3CCOCC3)c(F)c2)C(=O)O1,MIC,ATCC 29213 (linezolid-resistant),>64 µg/mL
CC(=O)NC[C@H]1CN(c2ccc(NC(=O)CO)c(F)c2)C(=O)O1,MIC,ATCC 29213 (linezolid-resistant),>64 µg/mL
COC(=O)N1CC=C(c2ccc(C3=NO[C@@H](CNC(=O)O)C3)cc2)CC1,MIC,UC9218,2 µg/mL
O=C(C(O)Cn1cccc1)N1CC=C(c2ccc(N3C[C@H](COc4ccon4)OC3=O)cc2F)CC1,MIC,078 (oxford),1 µg/mL
CC[C@H]1OC(=O)[C@H](C)C(=O)[C@H](C)[C@@H](O[C@@H]2O[C@H](C)C[C@H](N(C)C)[C@H]2O)[C@](C)(OC)C[C@@H](C)C(=O)[C@H](C)[C@H]2N(CCCCn3cnc(-c4cccnc4)c3)C(=O)O[C@]12C,MIC90,25 strains,>64 µg/mL
CC(=O)NC[C@H]1CN(c2ccc(NC(=O)c3ccc(F)o3)c(F)c2)C(=O)O1,MIC,ATCC 29213 (linezolid-resistant),>64 µg/mL
CCN(CC)CCCNc1cc2c(cc1F)c(=O)c(C(=O)O)cn2C1CC1,MIC,ATCC 5278 (methicillin-resistant),50 µg/mL
CC(=O)NC[C@H]1CN(c2ccc(NC(=O)c3ccc(C=O)o3)c(F)c2)C(=O)O1,MIC,ATCC 29213 (linezolid-resistant),>64 µg/mL
CC(=O)NC[C@H]1CN(c2ccc(-c3ncon3)c(F)c2)C(=O)O1,MIC,UC9213 (methicillin-susceptible),4 µg/mL
CS(=O)(=O)N1CCN(c2ccc(N3C[C@H](COc4ccon4)OC3=O)cc2F)CC1,MIC,004 (methicillin quinolone-resistant),4 µg/mL
CC(=O)NC[C@H]1CN(c2ccc3c(c2)OCc2nccn2-3)C(=O)O1,MIC,9TV,0.25 µg/mL
O=C(Nc1cc(C(F)(F)F)cc(C(F)(F)F)c1)NN1CCOCC1,MIC,MI273,100 µM
Nc1ccc(OC[C@H]2CN(c3ccc(C4=CCOCC4)c(F)c3)C(=O)O2)cn1,MIC,004 (methicillin quinolone-resistant),1 µg/mL
CC(C)(C)n1cc(C(=O)O)c(=O)c2cc(F)c(N3C[C@H]4C[C@@H]3CN4)nc21,MIC50,61 strains (methicillin-susceptible),0.13 µg/mL
COc1c(CN(C)C)cccc1C1OC(c2ccncc2)=NN1C(C)=Nc1ccccc1F,MIC,MTCC96,50 µg/mL
CC(C)(C)n1cc(C(=O)O)c(=O)c2cc(F)c(N3C[C@H]4C[C@@H]3CN4)nc21,MIC50,30 strains (methicillin-susceptible),0.12 µg/mL
NC(=O)NNC(=O)Nc1cc(C(F)(F)F)cc(C(F)(F)F)c1,MIC,MI273,140 µM
O=C(O)NC[C@H]1CC(c2cc(F)c(N3CCN(C(=O)CO)CC3)c(F)c2)=NO1,MIC,UC9213,2 µg/mL
O=C(Nc1cccc(C2=NCCN2)c1)Nc1cccc(C(F)(F)F)c1,MIC,MI273,150 µM
CO/N=C/c1ccc(/C=C/C(=O)NC[C@H]2CN(c3ccc(N4CCOCC4)c(F)c3)C(=O)O2)cc1,MIC,ATCC 29213 (linezolid-resistant),>64 µg/mL
C[C@@H]1N[C@H]2C[C@@H]1N(c1nc3c(cc1F)c(=O)c(C(=O)O)cn3C(C)(C)C)C2,MIC,A9537,0.06 µg/mL
O=C(O)NC[C@H]1CC(c2ccc(-n3ccnc3)c(F)c2)=NO1,MIC,UC9213,2 µg/mL
C[C@@H]1N[C@@H]2C[C@H]1N(c1nc3c(cc1F)c(=O)c(C(=O)O)cn3C(C)(C)C)C2,MIC,A9537,0.03 µg/mL
O=C(/C=C/c1ccncc1)NC[C@H]1CN(c2ccc(N3CCOCC3)c(F)c2)C(=O)O1,MIC,ATCC 29213 (linezolid-resistant),>64 µg/mL
CC1CN(c2cc3c(cc2F)c(=O)c(C(=O)O)cn3-c2ccc(F)cc2F)CCN1,MIC,ATCC 6538P,0.39 µg/mL
O=C1O[C@@H](COc2cnsn2)CN1c1ccc(-n2ccnc2)c(F)c1,MIC,078 (oxford),0.5 µg/mL
CO/N=C1\CN(c2nc3c(cc2F)c(=O)c(C(=O)O)cn3C2CC2)CC1CN,MIC,Giorgio,≤0.008 µg/mL
C[C@H]1COc2c(N3CCN(C)CC3)c(F)cc3c(=O)c(C(=O)O)cn1c23,MIC90,Methicillin-susceptible,0.25–0.5 µg/mL
CC(=O)NC[C@H]1CN(c2ccc(-c3noc(C(N)=O)n3)c(F)c2)C(=O)O1,MIC,UC6685 (methicillin-resistant),16 µg/mL
NCCCCCCCCNc1cc2c(cc1F)c(=O)c(C(=O)O)cn2C1CC1,MIC,ATCC 6538P,>100 µg/mL
O=C(NNC(=O)Nc1ccc(Cl)c(Cl)c1)Nc1ccc(Cl)c(Cl)c1,MIC,MI273,4.9 µM
CC(=O)NC[C@H]1CN(c2ccc(NC(=O)c3cc4ccccc4o3)c(F)c2)C(=O)O1,MIC,ATCC 29213 (linezolid-resistant),>64 µg/mL
CC[C@H]1OC(=O)[C@@](C)(F)C(=O)[C@H](C)[C@@H](O[C@@H]2O[C@H](C)C[C@H](N(C)C)[C@H]2O)[C@@]2(C)C[C@@H](C)C(=NC(C)=O)[C@H](C)[C@@H](OC/C(=N\OCC#Cc3cccc(N)n3)CO2)[C@]1(C)O,MIC,27660 (erythromycin A -resistant),<0.06 µg/mL
Cc1cn(-c2ccc(N3C[C@H](COc4ccon4)OC3=O)cc2F)cn1,MIC,078 (oxford),1 µg/mL
CN(C)CC(=O)Nc1cc(N(C)C)c2c(c1O)C(O)=C1C(=O)[C@]3(O)C(O)=C(C(N)=O)C(=O)[C@@H](N(C)C)[C@@H]3C[C@@H]1C2,MIC90,Oxacillin-resistant,0.03–1 µg/mL
CC(=O)NC[C@H]1CN(c2ccc(NC(=O)c3ccccn3)c(F)c2)C(=O)O1,MIC,ATCC 29213 (linezolid-resistant),>64 µg/mL
O=C(CO)N1CC=C(c2c(F)cc(N3C[C@H](COc4ccon4)OC3=O)cc2F)CC1,MIC,078 (oxford),0.5 µg/mL
CC[C@H]1OC(=O)[C@@](C)(F)C(=O)[C@H](C)[C@@H](O[C@@H]2O[C@H](C)C[C@H](N(C)C)[C@H]2O)[C@@]2(C)C[C@@H](C)C(=NC(C)=O)[C@H](C)[C@@H](OC/C(=N\OCc3cccc(C(N)=O)c3)CO2)[C@]1(C)O,MIC,29213 (erythromycin A-susceptible),0.25 µg/mL
C=C1COC2[C@@H](C)/C(=N/OCOC)[C@H](C)C[C@@](C)(OC1)[C@H](O[C@@H]1O[C@H](C)C[C@H](N(C)C)[C@H]1O)[C@@H](C)C(=O)[C@@H](C)C(=O)O[C@H](CC)[C@@]2(C)O,MIC,33591 (erythromycin methicillin-resistant),>64 µg/mL
CC(=O)NC[C@H]1CN(c2ccc(-c3cnc(C(C)=O)s3)c(F)c2)C(=O)O1,MIC,UC9213 (methicillin-susceptible),1 µg/mL
CC(=O)NCC1CN(c2ccc(N3CCN(c4ccccn4)CC3)c(F)c2)C(=O)O1,MIC,ATCC 29213 (linezolid-resistant),>64 µg/mL
CC(=O)NC[C@H]1CN(c2ccc(-c3ccn(CC#N)n3)c(F)c2)C(=O)O1,MIC,UC9213 (methicillin-susceptible),2 µg/mL
NCCCCCCNc1cc2c(cc1F)c(=O)c(C(=O)O)cn2C1CC1,MIC,ATCC 6538P,>100 µg/mL
CCCC[C@H](CC(=O)NO)C(=O)N1CCC[C@H]1C(=O)OC(C)(C)C,MIC90,25 strains,2 µg/mL
CC(=O)NC[C@H]1CN(c2ccc(-c3ccn(C)n3)c(F)c2)C(=O)O1,MIC,UC9213 (methicillin-susceptible),8 µg/mL